# Reference: patent publication US9695127B2, “Compounds for treating HIV and methods for using the compounds” (University of Pittsburgh—Of the Commonwealth System of …, priority 2012, dated 2017)
# Experiments:
# [1] = tested on: Nef-defective (ΔNef) HIV-1 NL4-3; assay: Nef-defective HIV-1 replication in CEM-T4 cells (p24 ELISA); settings: highest concentration tested 3.0 μM
# [2] = tested on: HIV-1 NL4-3 Nef chimeras (subtypes A1, A2, B, C, F1, F2, G, H, J, K, SF2); assay: HIV-1 Nef chimera replication in CEM-T4 cells (p24 ELISA); settings: read-out: IC50 replication of HIV-1 Nef chimeras, all eleven chimeras, p24 ELISA 10 days
# HIV-1 NL4-3 = settings: TZM-b1 cells, luciferase 48 hours, range of concentrations
smiles,measurement,setting,value
NC(=S)n1nc(-c2ccc([N+](=O)[O-])cc2)c(N=Nc2cccc(Cl)c2)c1O,Replication of Nef-defective HIV-1,[1],unaffected
same,IC50,[2],300 nM
same,Nef-mediated enhancement of HIV-1 infectivity,HIV-1 NL4-3,inhibited Nef-mediated enhancement of HIV-1 infectivity in a concentration-dependent manner
